Measured values from several laboratories, pooled; numbers as filed in NIAID ChemDB.

Common to all: tests in culture; organism: Sindbis virus; cell line: VERO; read by: cytopathic effect; read-out: EC50

Rows are shuffled and stem from different studies.

| SMILES | result |
|---|---|
| N#Cc1cncc([C@@H]2O[C@H](CO)[C@@H](O)[C@@H]2O)c1 | ≥100 µg/mL |
| CC(=O)Nc1nc2c(CC(O)CO)ncn2c(=O)[nH]1 | >200 µg/mL |
| CC=NC(=N)c1nc(-c2ccc(C)cc2)n(COCCO)n1 | >100 µg/mL |
| Cc1cn(C(CF)CCCO)c(=O)[nH]c1=O | >400 µg/mL |
| N#Cc1cncc([C@H]2O[C@H](CO)[C@@H](O)[C@@H]2O)c1 | ≥100 µg/mL |
| CC=NC(=N)c1nc(-c2ccc(OC)cc2)n(C/C=C/c2ccccc2)n1 | >100 µg/mL |
| C=CCc1ncn2c(=O)[nH]c(NC(C)=O)nc12 | >200 µg/mL |
| CC=NC(=N)c1nc(-c2cccc(OC)c2)n(C/C=C/c2ccccc2)n1 | >40 µg/mL |
| Cc1nc(Cc2ccccc2)c2[nH]c(=S)[nH]c(=O)n12 | >100 µg/mL |
| C=C(N=CC)c1nc(-c2cccc(C)c2)n([C@@H]2O[C@H](CO)[C@@H](O)[C@H]2O)n1 | >40 µg/mL |
| Nc1ncnc2c1ncn2C(CF)CCCO | >400 µg/mL |
| N#Cc1cncc([C@@H]2O[C@H](CO)[C@H](O)[C@@H]2O)c1 | ≥100 µg/mL |
| Nc1ccn(CCCC(O)CF)c(=O)n1 | >400 µg/mL |
| OC[C@H]1O[C@@H](c2cncc(Br)c2)[C@@H](O)[C@@H]1O | ≥100 µg/mL |
| C=C(N=CC)c1nc(-c2ccccc2)n(C2O[C@H](CO)[C@@H](O)[C@H](O)[C@H]2O)n1 | >200 µg/mL |

Repeating the final 2 entries:

{"SMILES": "OC[C@H]1O[C@@H](c2cncc(Br)c2)[C@@H](O)[C@@H]1O", "result": "≥100 µg/mL"}
{"SMILES": "C=C(N=CC)c1nc(-c2ccccc2)n(C2O[C@H](CO)[C@@H](O)[C@H](O)[C@H]2O)n1", "result": ">200 µg/mL"}

ECn is the concentration giving n% inhibition of infection, replication or growth.